{"source": "paper PMC4115230", "about": "“Lipid–Protein Nanodiscs Offer New Perspectives for Structural and Functional Studies of Water-Soluble Membrane-Active Peptides” (Acta Naturae, 2014)", "test_system": "LPN/POPC/DOPS (4 : 1)", "experiment": "1H,15N chemical shift comparison of NT II in water and in complex with LPN", "conditions": "aqueous environment vs LPN complex"}
{"molecule": "neurotoxin II (peptide) LECHNQQSSQPPTTKTCSGETNCYKKWWSDHRGTIIERGCGCPKVKPGVNLNCCRTDRCNN", "values": [{"measurement": "changes in spatial structure upon complex formation", "setting": "1H and 15N chemical shifts", "value": "no significant changes in the spatial structure"}, {"measurement": "residue with chemical shift changes exceeding 0.03 (1H) and 0.2 (15N) ppm", "setting": "data not shown", "value": "only for one Arg32 residue"}]}
